Assay results from article PMC13630248 (PLOS Biology, 2026).

Assays:
[1] = molecular target: RacCS203 Spike, full-length, on the cell surface (Bat coronavirus RacCS203, strain); settings: one partner purified
[2] = molecular target: RacCS203 RBD (recombinant receptor binding domain of Spike) (Bat coronavirus RacCS203, strain); settings: both partners purified
[3] = molecular target: Rs4231 Spike, full-length, on the cell surface (Bat SARS-like coronavirus Rs4231, UniProt A0A2D1PXA9, strain); settings: one partner purified
[4] = molecular target: Rf1/2004 Spike, full-length, on the cell surface (Bat SARS CoV Rf1/2004, UniProt Q0QDZ0, strain); settings: one partner purified
[5] = molecular target: Rs4231 RBD (recombinant receptor binding domain of Spike) (Bat SARS-like coronavirus Rs4231, UniProt A0A2D1PXA9, strain); settings: both partners purified

Measured: binding result

B1: V1WT_41 IgG (antibody, V domains shown)
VH: QVQLQESGPGLVKPSETVSVTCTVSGGSITRSNYYWGWIRQPPGKGLEWIGSIFYNGNTNYNPSLKSRLTISVDTSKNQFSLKLSSVTAADTAVYYCARTAPYYYDRSGYYQKEEYFQRWGQGTLVTVSS
VL: EIVMTQSPSTLSASVGDRVTITCRASQSISTWLAWYQQKPGKAPNLLIYQASSLESGVPSRFSGSGSGTEFTLTISSLQPDDFATYYCQQYNNYPRTFGQGTKLEIK
notes: copies: 2 + 2
binds: all assays above

B2: VA14_26 IgG (antibody, V domains shown)
VH: QVQLQQWGAGLLKPSDTLSLTCGISGGPFSGYYWSWIRQPPGKGLEWLGEINHSGITTYNPSLKSRGTISVDTSKRQISLKLASVTAADTAVYYCARFAYGDYGWDYSSDMDVWGKGTTVTVSS
VL: DIQLTQSPSTLSASVGDRVTITCRASQSISTWLAWHQQIPGKAPKLLIYRASTLQSGVPSRFSGSGSGTEFTLTISSLQPDDFATYYCQQYYSVRTFGQGTKVDIK
notes: copies: 2 + 2
not listed: [2]
binds: all other assays above

B3: V1WT_06 IgG (antibody, V domains shown)
VH: EVQLVQSGAEVKKPGASVKVSCKASGYTFSSHGISWVRQAPGQGLEWMGWISTYNGNTNSAQNLQGRVTMTADTSTSTAYMELRSLRSDDTAVYYCARGPWGYCSGTSCYYWTPDNPAYSYHGMDVWGQGTTVTVSS
VL: not shown
notes: copies: 2 + 2
not listed: [2]
binds: all other assays above
